Laboratory results taken from article PMC10881513, “Structure of the recombinant RNA polymerase from African Swine Fever Virus” (2024).

Biological target: ASFV RNA polymerase subunit vRPB1, African swine fever virus, strain BA71V, P42486 1-1450

Row | Substance | result
1 | ASFV RNA polymerase subunit vRPB5 | binds
2 | ASFV RNA polymerase subunit vRPB6 | binds
